A mixed list of measured activities; the numbers were collected in NIAID ChemDB.

Shared fields: tests in culture; species: Bovine viral diarrhea virus; measure: EC50

ECn: concentration that inhibits the pathogen or its effect by n%. Blank or dashed fields: not listed here. Neighbouring rows are from separate reports.

{"SMILES": "Nc1nc(=O)n2ccn([C@H]3C[C@H](O)[C@@H](CO)O3)c2n1", "value": "21 µM"}
{"SMILES": "O=[N+]([O-])c1ccc2c(c1)c(N=NC(=S)NC1CCCCC1)c(O)n2CN1CCCCC1", "cell line": "MDBK", "read by": "cytopathic effect", "value": ">21 µg/mL"}
{"SMILES": "O=C(Nc1ccccc1)c1ccc2cccnc2n1", "strain": "NADL", "cell line": "WST-1", "read by": "cytopathic effect", "value": ">8 µM"}
{"SMILES": "CNC(=S)N=Nc1c(O)[nH]c2ccc([N+](=O)[O-])cc12", "cell line": "MDBK", "read by": "cytopathic effect", "value": ">50 µg/mL"}
{"SMILES": "Nc1nc(=O)n2ccn([C@@H]3O[C@H](CO)C[C@H]3O)c2n1", "value": ">100 µM"}
{"SMILES": "O=c1ccn([C@@H]2O[C@H](CO)[C@](O)(C(F)(F)F)[C@H]2O)c(=O)[nH]1", "value": "≥100 µM"}
{"SMILES": "O=[N+]([O-])c1ccc2[nH]c(O)c(N=NC(=S)Nc3ccc(Br)cc3)c2c1", "cell line": "MDBK", "read by": "cytopathic effect", "value": ">17 µg/mL"}
{"SMILES": "Clc1ccc(Cn2ccc3nc(-c4ccccc4)nc-3c2)cc1", "strain": "PE515", "cell line": "MDBK", "read by": "cytopathic effect", "value": "0.086 µg/mL"}
{"SMILES": "O=[N+]([O-])c1ccc2c(c1)c(N=NC(=S)Nc1ccc(Cl)cc1)c(O)n2CN1CCCCC1", "cell line": "MDBK", "read by": "cytopathic effect", "value": ">19 µg/mL"}
{"SMILES": "Brc1ccc(Cn2ccc3nc(-c4ccccc4)nc-3c2)cc1", "strain": "3435 (TYPE 2)", "cell line": "MDBK", "read by": "ELISA", "value": "0.2 µM"}
{"SMILES": "O=[N+]([O-])c1ccc2[nH]c(O)c(N=NC(=S)Nc3ccc(Cl)cc3)c2c1", "cell line": "MDBK", "read by": "cytopathic effect", "value": ">19 µg/mL"}
{"SMILES": "COc1ccc(OC)c(OC)c1CNC(=O)c1ccc2cccnc2n1", "strain": "NADL", "cell line": "WST-1", "read by": "cytopathic effect", "value": "~1.1 µM"}
{"SMILES": "O=c1nc(NO)ccn1[C@@H]1O[C@H](CO)[C@@H](O)[C@H]1O", "cell line": "MDCK", "value": "<5.4 µM"}
{"SMILES": "Fc1ccc(Cn2ccc3nc(-c4c(F)ccc(F)c4F)nc-3c2)c(F)c1", "cell line": "MDBK", "read by": "cytopathic effect", "value": "0.021 µg/mL"}
{"SMILES": "Nc1ncnc2c1ncn2[C@@H]1O[C@H](CO)[C@](O)(C(F)(F)F)[C@H]1O", "value": "≥100 µM"}
{"SMILES": "Fc1cc(F)c(Cn2ccc3nc(-c4c(F)cccc4F)nc-3c2)c(F)c1", "strain": "PE515", "cell line": "MDBK", "read by": "cytopathic effect", "value": "0.365 µg/mL"}
{"SMILES": "Nc1nc(=O)n2ccn([C@@H]3O[C@H](CO)[C@@H](O)[C@H]3O)c2n1", "value": "31 µM"}
{"SMILES": "O=C1Nc2ccc([N+](=O)[O-])cc2/C1=N/N=C1/SCC(=O)N1c1ccc(Cl)cc1", "cell line": "MDBK", "read by": "cytopathic effect", "value": ">2 µg/mL"}
{"SMILES": "Fc1cccc(F)c1Cn1ccc2nc(-c3c(F)cccc3F)nc-2c1", "strain": "PE515", "cell line": "MDBK", "read by": "cytopathic effect", "value": "0.24 µg/mL"}
{"SMILES": "O=C(NCc1ccccn1)c1ccc2cccnc2n1", "strain": "NADL", "cell line": "WST-1", "read by": "cytopathic effect", "value": ">7.6 µM"}
{"SMILES": "Fc1ccc(Cn2ccc3nc(-c4c(F)cccc4F)nc-3c2)cc1", "strain": "PE515", "cell line": "MDBK", "read by": "cytopathic effect", "value": "0.2 µg/mL"}
{"SMILES": "NCCCC[C@H](N)C(=O)Nc1cccc(-c2ccc(NC(=O)Nc3nc4ccccc4s3)nc2)c1", "strain": "F78I", "cell line": "MDBK", "read by": "plaque count", "value": "8.3 µM"}
{"SMILES": "O=[N+]([O-])c1ccc(NC(=S)N=Nc2c(O)[nH]c3ccc([N+](=O)[O-])cc23)cc1", "cell line": "MDBK", "read by": "cytopathic effect", "value": ">22 µg/mL"}
{"SMILES": "Clc1ccccc1-c1nc2ccn(Cc3ccc(Br)cc3)cc-2n1", "strain": "PE515", "cell line": "MDBK", "read by": "cytopathic effect", "value": "0.351 µg/mL"}

A second listing of 3 rows from above:

SMILES,strain,cell line,read by,value
Clc1ccc(Cn2ccc3nc(-c4ccccc4)nc-3c2)cc1,PE515,MDBK,cytopathic effect,0.086 µg/mL
O=[N+]([O-])c1ccc2c(c1)c(N=NC(=S)Nc1ccc(Cl)cc1)c(O)n2CN1CCCCC1,,MDBK,cytopathic effect,>19 µg/mL
O=c1nc(NO)ccn1[C@@H]1O[C@H](CO)[C@@H](O)[C@H]1O,,MDCK,,<5.4 µM